Compound potency records, mixed from different reports. Data source: NIAID ChemDB in PubChem.

Common to all: tests on isolated targets; species: HIV-1; target: Reverse transcriptase; read by: ELISA; endpoint: inhibition

Neighbouring rows are from separate reports. Inhibition is in % at the dose shown (toxicity tests: loss of growth or viability).

compound | dose | result
[Al+3] | 100 µM | 8%
Clc1ccc(-c2nc3ccccn3c2NC2CCCCC2)c(Cl)c1 | 50 µM | 60.1%
[Cs+] | 10 µM | 2%
Cc1nc(N2C(=O)CSC2c2c(Cl)cccc2Cl)ccc1Br | 10 µg/mL | 32.2%
[O]=[V](=[O])[O-] | 10 µM | 23%
Clc1ccccc1-c1nc2cccc(Cl)n2c1NC1CCCCC1 | 50 µM | 96.1%
[Ba+2] | 100 µM | 3%
CN=C1CN=C(c2ccc[nH]2)c2cc(Cl)ccc2N1 | 25 µM | 62%
C=C/C=C(\C=C/Cc1c2nc(c(-c3ccc(S(=O)(=O)NCCN(CC)CC)cc3)c3ccc([n-]3)c(C/C=C\C(=C/C=C)S(=O)(=O)NCCN(CC)CC)c3ccc([n-]3)c(-c3ccc(S(=O)(=O)NCCN(CC)CC)cc3)c3nc1C=C3)C=C2)S(=O)(=O)NCCN(CC)CC.[O]=[V+2] | 50 µM | 73%
[O]=[V+2] | 100 µM | 26%
O=C1CSC(c2c(F)cccc2Cl)N1c1cccc(C(F)(F)F)c1 | 10 µg/mL | 0%
Clc1ccc2nc(-c3ccccc3Cl)c(NC3CCCCC3)n2c1 | 50 µM | 80%
[Be+2] | 100 µM | <1%
Cc1cn([C@H]2CC[C@@H](COP(=O)(O)OP(=O)(O)OP(=O)(O)O)O2)c(=O)[nH]c1=O | 10 µM | 99%
O=C1CSC(c2ccnc3ccccc23)N1Cc1ccco1 | 10 µg/mL | 9.99%
CCn1cnc2ncn([C@@H]3O[C@H](CO[Si](C)(C)C(C)(C)C)C4(OS(=O)(=O)C=C4N)[C@H]3O[Si](C)(C)C(C)(C)C)c2c1=O | 16 µM | 58%
Fc1ccc2nc(-c3ccccc3Cl)c(NC3CCCCC3)n2c1 | 50 µM | 83%
O=C1CSC(c2c(F)cccc2F)N1Cc1ccco1 | 10 µg/mL | 39.75%
N#Cc1ccc2nc(-c3ccccc3Cl)c(NC3CCCCC3)n2c1 | 50 µM | 88.2%
CCN(/C=C/c1ccccc1Cl)C(C)=O | 200 µg/mL | 59.1%
O=C1CSC(c2c(F)cccc2F)N1c1cccc(C(F)(F)F)c1 | 10 µg/mL | 0%
CC1=C(/C=C/C(C)=C/C=C/C(C)=C/C(=O)O)C(C)(C)CCC1 | 100 µM | 30%
CC(=O)N(/C=C/c1ccccc1Br)C(C)=O | 200 µg/mL | 60.55%
CO[C@H]1O[C@H](CN2C(=O)CS[C@@H]2c2c(Cl)cccc2Cl)[C@@H](O)[C@H](O)[C@H]1O | 25 µg/mL | 55.8%
COc1ccc(/C=C/N(C)C(C)=O)c(OC)c1 | 200 µg/mL | 69.45%
Cc1ccc(CN2C(=O)CSC2c2c(Cl)cccc2Cl)o1 | 10 µg/mL | 49.8%

The first 2 rows once more:

compound	dose	result
[Al+3]	100 µM	8%
Clc1ccc(-c2nc3ccccn3c2NC2CCCCC2)c(Cl)c1	50 µM	60.1%